Measurements taken from article PMC4997874 (Antimicrobial Agents and Chemotherapy, 2016).
Where a name gives a salt, the structure may show the parent alone. Read-outs that look alike come from different tables or passages of the source.

Biological target: PrP^Sc-seeded misfolding of ovine PrP^C (tg338 mouse brain homogenate seeded with scrapie brain homogenate) (Ovis aries, UniProt P23907, A136V/R171Q)
Conditions: sPMCA

Row | SMILES | Inhibition of PrP^Sc-seeded misfolding (1 μM) | Percent reduction categorical score, PrP^Sc-seeded misfolding (1 μM, compared to the vehicle control (0.4% DMSO)) | Inhibition of PrP^Sc-seeded misfolding (4 μM)
1 | c1cc(-c2ccc(-c3nc4ccc(C5=NCCN5)cc4[nH]3)o2)ccc1C1=NCCN1 [DB302] | strong inhibitory activity |  | 
2 | N=C(N)c1ccc(-c2ccc(-c3nc4ccccc4[nH]3)o2)cc1 [DB771] | lacked any measurable inhibitory activity |  | 
3 | c1ccc2[nH]c(-c3ccc(-c4ccc(C5=NCCN5)cc4)o3)nc2c1 [DB772, 2-(2-benzimidazolyl)-5-[4-(2-imidazolino)phenyl] furan dihydrochloride] | inhibited | 2 (2 represented at least a 1/2-log reduction in seeded misfolding (i.e., percent reduction exceeds the established cutoff of ≥68%)) | inhibited
4 | N=C(N)c1ccc(-c2ccc(-c3nc4ccc(C(=N)N)cc4[nH]3)s2)cc1 [DB818A] | strong inhibitory activity |  | 
5 | c1ccc2[nH]c(-c3ccc(-c4ccc(C5=NCCN5)cc4)s3)nc2c1 [DB932A] | strong inhibitory activity |  | 
6 | Cn1c(-c2ccc(-c3ccc(C4=NCCN4)cc3)o2)nc2ccccc21 [DB948] | lacked detectable inhibition |  | 
